Data: paper PMC8957246, “Synthesis and diverse biological activity profile of triethylammonium isatin-3-hydrazones” (ADMET & DMPK, 2022)

Tested on: Phytophthora cactorum VKM F-985
Assay: Fungicidal activity, radial growth inhibition, P. cactorum
Format: cell-based
Details: by seven days of the fungus growth
Source text: Plant pathogenic bacterial strains Micrococcus luteus B-109, Pectobacterium atrosepticum 1043, Pectobacterium carotovorum subsp. carotovorum MI, Pseudomonas fluorescens EL-2.1, and Xanthomonas campestris B-610 and fungal strain Fusarium oxysporum IBPPM 543 were obtained from the specialized scientific culture collection of IBPPM RAS (WFCC no. 975, WDCM no. 1021) (CM IBPPM). Pathogenic fungus Phytophthora cactorum VKM F-985 provided by the All-Russian Collection of Microorganisms (VKM) and deposited at A.E. Favorsky Irkutsk Institute of Chemistry, SB RAS, was also used as test organism. […]
For the fungicidal activity analysis, radial growth (colony diameters) of the fungi on a solid medium in the absence and in the presence of the compounds 3a,c-g solutions at various concentrations were compared. The method consisted of the following: sterile, melted and then cooled to about 60°C GPY agar medium (20.0 ml) was mixed with the precisely measured volumes of the solutions under question, and poured into a sterile Petri dish (90 mm i.d.). […] The fungicidal effect was scored by the size of mycelium colony on a Petri dish compared to the control without fungicidal admixtures to GPY agar. […]

Row | SMILES | antagonistic effect superior to fludioxonil [times]
1 | CCc1cccc2c1N(Cc1cc(C(C)(C)C)c(O)c(C(C)(C)C)c1)C(=O)/C2=N\NC(=O)C[N+](CC)(CC)CC [Compound 3c, 2-(2-(1-(3,5-Di-tert-butyl-4-hydroxybenzyl)-7-ethyl-2-oxoindolin-3-ylidene)hydrazinyl)-N,N,N-triethyl-2-oxoethanammonium bromide] | 13.2
2 | CC[N+](CC)(CC)CC(=O)N/N=C1\C(=O)N(Cc2cc(C(C)(C)C)c(O)c(C(C)(C)C)c2)c2c1ccc(C)c2C [Compound 3d, 2-(2-(1-(3,5-Di-tert-butyl-4-hydroxybenzyl)-6,7-dimethyl-2-oxoindolin-3-ylidene)hydrazinyl)-N,N,N-triethyl-2-oxoethanammonium bromide] | 2.5
